Results on two compounds are retold here after paper PMC2625307 (Journal of molecular biology, 2008).

Each structure is given as a SMILES string.

For assay [1], the target named is T1, YU2 gp120 (Human immunodeficiency virus type 1 group M subtype B, UniProt P35961). On the set-up: species or system HIV-1. The note with it: 10Å shell from Cα of residue 23; ternary complex with 17b.
The target of assay [2] is T1, YU2 gp120. Description: Surface-plasmon resonance binding, YU2 gp120. On the set-up: species or system HIV-1. The note with it: YU2; vs biphenyl counterpart.
For a further assay, the system named is HIV-1 gp120. The note with it: vs biphenyl counterpart (CD4M33, CD4M47).
Another assay has as its target HXBc2 gp120 (Human immunodeficiency virus type 1 group M subtype B, UniProt P04578). Description: Surface-plasmon resonance binding, HXBc2 gp120. The note with it: HXBc2; vs biphenyl counterpart. On the set-up: species or system HIV-1.

As for `CC(C)C[C@@H]1NC(=O)CNC(=O)[C@H](CC(C)C)NC(=O)[C@H](CO)NC(=O)[C@H](CCCCN)NC(=O)[C@@H]2CSSC[C@@H](C(=O)N[C@H](C(N)=O)C(C)C)NC(=O)[C@H](C)NC(=O)[C@@H]3CSSC[C@H](NC(=O)[C@H](Cc4ccccc4)NC(=O)[C@H](Cc4c[nH]cn4)NC(=O)[C@H](CC(C)C)NC(=O)[C@H](CC(N)=O)NC(=O)CCSSC[C@H](NC(=O)[C@H](CCCCN)NC(=O)CNC(=O)[C@H](CC(C)C)NC1=O)C(=O)N[C@@H](C)C(=O)NCC(=O)N[C@@H](CO)C(=O)N[C@@H](Cc1ccc(-c4ccccc4)cc1)C(=O)N3)C(=O)N[C@@H](CCC(N)=O)C(=O)N[C@@H](CC(C)C)C(=O)N[C@@H](CCCNC(=N)N)C(=O)N2` [CD4M33], at YU2 gp120 [1], the “normalized linear difference distance of gp120 vs CD4-bound gp120” value was 0.22-0.24 Å.

With `CC(C)C[C@@H]1NC(=O)CNC(=O)[C@H](CC(C)C)NC(=O)[C@H](CO)NC(=O)[C@H](CCCCN)NC(=O)[C@@H]2CSSC[C@@H](C(=O)N[C@H](C(N)=O)C(C)C)NC(=O)[C@H](C)NC(=O)[C@@H]3CSSC[C@H](NC(=O)[C@H](Cc4ccccc4)NC(=O)[C@H](Cc4c[nH]cn4)NC(=O)[C@H](CC(C)C)NC(=O)[C@H](CC(N)=O)NC(=O)CCSSC[C@H](NC(=O)[C@H](CCCNC(=N)N)NC(=O)CNC(=O)[C@H](CC(C)C)NC1=O)C(=O)N[C@@H](C)C(=O)N1CCC[C@@H]1C(=O)N[C@@H]([C@@H](C)O)C(=O)N[C@@H](Cc1ccccc1)C(=O)N3)C(=O)N[C@@H](CCC(N)=O)C(=O)N[C@@H](CC(C)C)C(=O)N[C@@H](CCCNC(=N)N)C(=O)N2` [[Phe^23]M47], the “off-rate, fold difference between phenyl- and biphenyl-containing ligands” value is reported as ≤ 1.7 fold on YU2 gp120 [2] and ≤ 1.1 fold on HXBc2 gp120. The “normalized linear difference distance of gp120 vs CD4-bound gp120” value on YU2 gp120 [1] was 0.16-0.20 Å. In addition, the “on-rate compared with biphenyl counterpart” value with HIV-1 gp120 is recorded as “about half as fast”.
